Experiments:
Assay type in all cases: cell-based, human rhinovirus
HRV-14 = assay: Antirhinoviral H1-HeLa cell culture assay (XTT), HRV-14; details: therapeutic index CC50/EC50, HRV serotype-14
Procedure: (§1) Antirhinoviral H1-HeLa Cell Culture Assay
(§2) In this cell protection assay, the ability of compounds to protect cells against HRV infection was measured by the XTT dye reduction method, which is described in Weislow et al., J. Natl. Cancer Inst. 1989, vol. 81, 577-586.
(§3) H1-HeLa cells were infected with HRV-14 at a multiplicity of infection (m.o.i.) of 0.13 (virus particles/cell) or mock-infected with medium only. Infected or mock-infected cells were resuspended at 8×10^5 cells per mL, and incubated with appropriate concentrations of the compounds to be tested. Two days later, XTT/PMS was added to test plates and the amount of formazan produced was quantified spectrophotometrically at 450/650 nm. The EC50 value was calculated as the concentration of compound that increased the percentage of formazan production in compound-treated, virus-infected cells to 50% of that produced by compound-free, mock-infected cells. The 50% cytotoxic dose (CC50) was calculated as the concentration of compound that decreased the percentage of formazan produced in compound-treated, mock-infected cells to 50% of that produced by compound-free, mock-infected cells. The therapeutic index (TI) was calculated by dividing the CC50 value by the EC50 value.
(§4) All strains of human rhinovirus (HRV) for use in this assay were purchased from American Type Culture Collection (ATCC), except for HRV serotype-14 (produced from the infectious cDNA clone constructed by Dr. Robert Rueckert, Institute for Molecular Virology, University of Wisconsin, Madison, Wis.). HRV stocks were propagated and viral assays were performed in H1-HeLa cells (ATCC). Cells were grown in minimal essential medium with 10% fetal bovine serum, available from Life Technologies (Gaithersburg, Md.).
(§5) The compounds were tested against control compounds WIN 51711, WIN 52084, and WIN 54954 (obtained from Sterling-Winthrop Pharmaceuticals), Pirodavir (obtained from Janssen Pharmaceuticals), and Pleconaril (prepared according to the method described in Diana et al., J. Med. Chem 1995, vol. 38, 1355). Antiviral data obtained for the test compounds are shown in Tables 1 and 3, where all data are for HRV serotype-14 unless otherwise noted in parentheses.

HRV serotype 89 = assay: Antirhinoviral H1-HeLa cell culture assay (XTT), HRV-89; details: therapeutic index CC50/EC50, HRV (89)
Procedure: as §1, §2, §3, §4, §5

HRV serotype 16 = assay: Antirhinoviral H1-HeLa cell culture assay (XTT), HRV-16; details: therapeutic index CC50/EC50, HRV (16)
Procedure: as §1, §2, §3, §4, §5

HRV serotype 10 = assay: Antirhinoviral H1-HeLa cell culture assay (XTT), HRV-10; details: therapeutic index CC50/EC50, HRV (10)
Procedure: as §1, §2, §3, §4, §5

HRV serotype 1A = assay: Antirhinoviral H1-HeLa cell culture assay (XTT), HRV-1A; details: therapeutic index CC50/EC50, HRV (1A)
Procedure: as §1, §2, §3, §4, §5

HRV serotype 2 = assay: Antirhinoviral H1-HeLa cell culture assay (XTT), HRV-2; details: therapeutic index CC50/EC50, HRV (2)
Procedure: as §1, §2, §3, §4, §5

HRV serotype 39 = assay: Antirhinoviral H1-HeLa cell culture assay (XTT), HRV-39; details: therapeutic index CC50/EC50, HRV (39)
Procedure: as §1, §2, §3, §4, §5

CC(C)[C@H](NC(=O)C1SCCS1)C(=O)N[C@@H](Cc1ccc(F)cc1)C(=O)N[C@H](/C=C/C(=O)OCc1cccnc1)CCC(N)=O [(A-18)]
TI (HRV-14): >67

CCOC(=O)/C=C/[C@H](C[C@@H]1CCCNC1=O)NC(=O)[C@@H](CC(=O)[C@@H](NC(=O)c1cc(C)on1)C(C)C)Cc1ccc(F)cc1 [(B-4), Ethyl-3-{(5′-Methylisoxazole-3′-carbonyl)-L-ValΨ(COCH2)-L-(4-F-Phe)-L-((S)-Piper-Ala)}-E-Propenoate]
TI (HRV-14): >3333

Cc1cc(CCCCCOc2c(Cl)cc(C3=NCCO3)cc2Cl)on1 [WIN 54954, reference compound]
TI (HRV-14): >30

CCOC(=O)/C=C/[C@H](CCC(N)=O)NC(=O)[C@H](Cc1ccc(F)cc1)NC(=O)[C@@H](NC(=O)c1cc(C)on1)C(C)(C)C [(A-4), Ethyl-3-((5′-Methylisoxazole-3′-carbonyl)-L-α-(t-Butyl-Gly)-L-(4-F-Phe)-L-Gln)-E-Propenoate]
TI (HRV-14): >1000

CCOC(=O)/C=C/[C@H](CCC(N)=O)NC(=O)[C@H](Cc1ccc(F)cc1)N(C)C(=O)[C@H](Cc1cccc2ccccc12)NC(=O)c1cc(C)on1 [(A-13), Ethyl-3-{(5′-Methylisoxazole-3′-carbonyl)-L-(1-Naphth)-NCH3-L-(4-F-Phe)-L-Gln}-E-Propenoate]
TI (HRV-14): >50

CCOC(=O)/C=C/[C@H](CCC(N)=O)NC(=O)[C@H](Cc1ccc(F)cc1)N(C)C(=O)[C@H](Cc1c[nH]cn1)NC(=O)c1cc(C)on1 [(A-9), Ethyl-3-{(5′-Methylisoxazole-3′-carbonyl)-L-His-NCH3-L-(4-F-Phe)-L-Gln}-E-Propenoate]
TI (HRV-14): >55

CCOC(=O)/C=C/[C@H](C[C@@H]1CCNC1=O)NC(=O)[C@H](Cc1ccccc1)NC(=O)[C@H](CC(C)C)NC(=O)OCc1ccccc1 [(A-24), Ethyl-3-{Cbz-L-Leu-L-Phe-L-((S)-Pyrrol-Ala)}-E-Propenoate]
TI (HRV-14): >1000

CCOC(=O)/C=C/[C@H](CCC(N)=O)NC(=O)[C@H](Cc1ccc(C)cc1)NC(=O)[C@@H](NC(=O)c1cc(C)on1)C(C)(C)C [(A-3), Ethyl-3-((5′-Methylisoxazole-3′-carbonyl)-L-α-(t-Butyl-Gly)-L-(4-Me-Phe)-L-Gln)-E-Propenoate]
TI (HRV-14): >200

CCOC(=O)/C=C/[C@H](CCC(N)=O)NC(=O)[C@H](Cc1ccc(F)cc1)N(C)C(=O)[C@H](Cc1ccc2ccccc2c1)NC(=O)c1cc(C)on1 [(A-11), Ethyl-3-{(5′-Methylisoxazole-3′-carbonyl)-L-(2-Naphth)-NCH3-L-(4-F-Phe)-L-Gln}-E-Propenoate]
TI (HRV-14): 1667

CCOC(=O)/C=C/[C@H](CCC(N)=O)NC(=O)[C@H](Cc1ccccc1)NC(=O)[C@H](CC(C)C)NC(=O)OCc1ccccc1 [Comparison Compound #2, Ethyl-3-(Cbz-L-Leu-L-Phe-L-Gln)-E-Propenoate]
TI (HRV serotype 89): >50 | TI (HRV-14): >524 | TI (HRV serotype 16): >139 | TI (HRV serotype 10): >533

CCOC(=O)/C=C/[C@H](CCC(N)=O)NC(=O)[C@H](Cc1ccccc1)NC(=O)[C@@H](NC(=O)c1cccs1)C(C)(C)C [(A-14)]
TI (HRV-14): >208

Cc1cc(C(=O)N[C@H](C(=O)C[C@@H](Cc2ccc(F)cc2)C(=O)N[C@H](/C=C2\CCOC2=O)C[C@@H]2CCNC2=O)C(C)C)no1 [(B-3), 2-{(5′-Methylisoxazole-3′-carbonyl)-L-ValΨ(COCH2)-L-(4-F-Phe)-L-((S)-Pyrrol-Ala)}-E-(α-Vinyl-γ-Butyrolactone)]
TI (HRV-14): >543

CCOC(=O)/C=C/[C@H](CCC(N)=O)NC(=O)[C@H](Cc1ccc(F)cc1)N(C)C(=O)[C@H](CC(C)C)NC(=O)c1cc(C)on1 [(A-12), Ethyl-3-{(5′-Methylisoxazole-3′-carbonyl)-L-Leu-NCH3-L-(4-F-Phe)-L-Gln}-E-Propenoate]
TI (HRV-14): >250

CCOC(=O)/C=C/[C@H](CCC(N)=O)NC(=O)[C@H](Cc1ccc(C)cc1)NC(=O)[C@@H](NC(=O)C1SCCS1)C(C)(C)C [(A-15)]
TI (HRV-14): >454 | TI (HRV serotype 1A): >14 | TI (HRV serotype 10): >37

CCOC(=O)/C=C/[C@H](CCC(N)=O)NC(=O)[C@H](Cc1ccccc1)NC(=O)[C@H](CC(C)C)NC(=O)c1ccno1 [(A-2), Ethyl-3-((Isoxazole-5′-carbonyl)-L-Leu-L-Phe-L-Gin)-E-Propenoate]
TI (HRV-14): >63

CCOC(=O)/C=C/[C@H](CCC(N)=O)NC(=O)[C@H](Cc1ccccc1)NC(=O)[C@H](CC(C)C)NC(=O)c1cc(C)on1 [(A-1), Ethyl-3-((5′-Methylisoxazole-3′-carbonyl)-L-Leu-L-Phe-L-Gln)-E-Propenoate]
TI (HRV serotype 2): >243 | TI (HRV serotype 39): >450 | TI (HRV-14): >400 | TI (HRV serotype 1A): >100

CCOC(=O)/C=C/[C@H](C[C@H]1CCNC1=O)NC(=O)[C@H](Cc1ccccc1)NC(=O)[C@H](CC(C)C)NC(=O)OCc1ccccc1 [(A-27), Ethyl-3-{Cbz-L-Leu-L-Phe-L-((R)-Pyrrol-Ala)}-E-Propenoate]
TI (HRV-14): >62

CCOC(=O)/C=C/[C@H](C[C@@H]1CCNC1=O)NC(=O)[C@H](Cc1ccccc1)NC(=O)[C@@H](NC(=O)OCc1ccccc1)C(C)C [(A-25), Ethyl-3-{Cbz-L-Val-L-Phe-L-((S)-Pyrrol-Ala)}-E-Propenoate]
TI (HRV-14): >3333

CCOC(=O)/C=C/[C@H](CCC(N)=O)NC(=O)[C@H](Cc1ccc(C)cc1)NC(=O)[C@@H](NC(=O)c1ccc[nH]1)C(C)(C)C [(A-16)]
TI (HRV-14): >222 | TI (HRV serotype 1A): >21 | TI (HRV serotype 10): >22

CCOC(=O)/C=C/[C@H](CCC(N)=O)NC(=O)[C@H](Cc1ccccc1)NC(=O)[C@H](CC(C)C)NC(=O)[C@@H]1C=CCN1 [(A-19)]
TI (HRV-14): >4

CCOC(=O)/C=C/[C@H](CCC(N)=O)NC(=O)[C@H](Cc1ccccc1)NC(=O)[C@H](CC(C)C)NC(=O)c1cc(C)oc1C [(A-20)]
TI (HRV-14): >8

CCOC(=O)/C=C/[C@H](C[C@@H]1CCCNC1=O)NC(=O)[C@H](Cc1ccccc1)NC(=O)[C@H](CC(C)C)NC(=O)OCc1ccccc1 [(A-26), Ethyl-3-{Cbz-L-Leu-L-Phe-L-((S)-Piper-Ala)}-E-Propenoate]
TI (HRV-14): >3333

CCOC(=O)/C=C/[C@H](CCC(N)=O)NC(=O)[C@H](Cc1ccccc1)NC(=O)[C@H](CC(C)C)NC(=O)c1nc(C)c[nH]1 [(A-21)]
TI (HRV-14): >40

Cc1cc(CCCCCCCOc2ccc(C3=NCCO3)cc2)on1 [WIN 51711, reference compound]
TI (HRV-14): >77

CCOC(=O)/C=C/[C@H](CCC(N)=O)NC(=O)[C@H](Cc1ccc(F)cc1)OC(=O)[C@@H](NC(=O)c1cc(C)on1)C(C)C [(C-1), Ethyl-3-{(5′-Methylisoxazole-3′-carbonyl)-L-Val-O-L-(4-F-Phe)-L-Gln}-E-Propenoate]
TI (HRV-14): >100

Cc1cc(CCCCCCCOc2ccc(C3=N[C@@H](C)CO3)cc2)on1 [WIN 52084, reference compound]
TI (HRV-14): >143
